Data published in patent publication US20230398125A1, “TREATING HEPATITIS” (Albireo AB, priority 2022, published 2023).

Test: Blood human albumin concentration in HBV-infected PXB mice
Assay type: in vivo

CCCCC1CN(c2ccccc2)c2cc(SC)c(O/C=C(\F)C(=O)O)cc2S(=O)(=O)N1C (stereo not shown) [Compound 1, (Z)-3-((3-butyl-2-methyl-7-(methylthio)-1,1-dioxido-5-phenyl-2,3,4,5-tetrahydro-1,2,5-benzothiadiazepin-8-yl)oxy)-2-fluoroacrylic acid]
blood concentration of human albumin (10 mg/kg, Day 14): 10.8 ± 0.9 mg/mL | blood concentration of human albumin (10 mg/kg, baseline): 10.8 ± 1.0 mg/mL | blood concentration of human albumin (30 mg/kg, Day 14): 11.3 ± 1.2 mg/mL | blood concentration of human albumin (30 mg/kg, baseline): 10.6 ± 1.5 mg/mL
